This note sets out measurements from PubChem BioAssay AID1533 (PCMD, 2009).

Sequences of proteins named here, by UniProt entry; tags and fusion partners are left off.
UniProt P9WH09, whole entry, looked up: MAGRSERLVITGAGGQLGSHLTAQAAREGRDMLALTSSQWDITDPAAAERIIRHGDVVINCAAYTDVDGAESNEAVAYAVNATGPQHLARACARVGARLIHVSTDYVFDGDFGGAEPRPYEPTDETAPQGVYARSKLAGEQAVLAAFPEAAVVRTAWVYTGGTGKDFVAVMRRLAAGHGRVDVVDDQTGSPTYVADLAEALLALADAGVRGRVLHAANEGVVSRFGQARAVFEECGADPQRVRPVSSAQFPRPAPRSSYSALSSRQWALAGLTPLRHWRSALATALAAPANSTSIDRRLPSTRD
UniProt P9WH11, whole entry, looked up: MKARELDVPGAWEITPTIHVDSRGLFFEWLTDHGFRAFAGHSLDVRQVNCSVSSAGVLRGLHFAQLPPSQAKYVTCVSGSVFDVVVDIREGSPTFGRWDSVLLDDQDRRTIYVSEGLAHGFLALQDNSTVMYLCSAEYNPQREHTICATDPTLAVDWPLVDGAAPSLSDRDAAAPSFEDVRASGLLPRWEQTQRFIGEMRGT

This is a selection; strong and weak results do not stand in their true shares. Active and inactive are the calls of the source. No stated cut-off is given here; in the data, active means inhibition mostly above about 34% (no sharp cut-off); inconclusive means no clear call, values can overlap the other calls; inactive means mostly below about 22%.

The assay concerns the target dTDP-4-dehydrorhamnose reductase (Mycobacterium tuberculosis (strain ATCC 25618 / H37Rv)) + dTDP-4-dehydrorhamnose 3,5-epimerase (Mycobacterium tuberculosis (strain ATCC 25618 / H37Rv)) (UniProt P9WH09+P9WH11). Nature of the assay: M. tuberculosis RmlC/RmlD coupled enzyme inhibitors, primary screen, biochemical, compound mixtures, 384-well, from 1536-well plates (AID 1533). Particulars: RmlC+RmlD coupled enzyme assay, percent inhibition; primary screen in compound mixtures; at 3.6 µM; hits give high values.
Turning to `COP1(=S)c2c(C)nn(CCC#N)c2N=C(c2ccc(F)cc2)N1C` (stereo not given), the inhibition was inactive: -4.66%. As for `CP(=O)(Nc1ccc(SC(F)(F)F)cc1)Oc1ccc(Cl)cc1` (stereo not given), the inhibition was inactive: -14.7%. The same measure for `Cc1cccc(C)c1OP(C)(=O)Nc1ccc(SC(F)(F)F)cc1` (stereo not given): inactive: -14.8%; for `CP(=O)(Oc1ccccc1)OC(c1ccccc1)C(F)(F)F` (stereo not given): inactive: -8.96%. As to `O=C(COc1ccccc1)OC1CN2CCC1CC2` (stereo not given), the inhibition is inactive: 10.7%. For the compound `CCc1ccc(OP(C)(=O)N2CCN(c3ccc([N+](=O)[O-])cc3)CC2)cc1` (stereo not given), the inhibition was inactive: -10.1%.

As for `Cc1cc(C)cc(OP(C)(=O)Nc2ccc(SC(F)(F)F)cc2)c1` (stereo not given), the inhibition is inactive: 20.1%. The same measure for `CCOC(=O)c1ccc(NC(=O)C(C)(CCl)SC)cc1` (stereo not given): inactive: -2.57%. With `CCOC(=O)c1ccc(NP(C)(=O)Oc2ccc(OC)cc2)cc1` (stereo not given), the inhibition is inactive: 14.2%. For `CCOP(C)(=S)SCC(=O)NC(C)C(=O)O` (stereo not given), the inhibition is inactive: -4.24%. For the compound `CP(=O)(Nc1ccccn1)Oc1ccc(Cl)cc1` (stereo not given), the inhibition was inactive: 19.1%. With `CCOC(=O)Nc1ccc([As](=O)(O)O)c(O)c1`, the inhibition was inactive: 6.7%. As for `Cc1cc(SC(NC(=O)c2ccccc2)C(Cl)(Cl)Cl)nc(C(C)C)n1` (stereo not given), the inhibition was inactive: 2.27%. Consider `CCOC(=O)Nc1cccc([As](=O)(O)O)c1`, for which the inhibition was inactive: 23%. As for `CP(=S)(Nn1cnnc1)Oc1ccccc1` (stereo not given), the inhibition was inactive: 11.7%. Consider `CP(=O)(Nc1ccccc1Br)Oc1ccccc1` (stereo not given), for which the inhibition was inactive: 6.53%. `O=[N+]([O-])c1ccc(Nc2ccc(Oc3ccc([N+](=O)[O-])cc3[N+](=O)[O-])cc2)c([N+](=O)[O-])c1`: the inhibition is inactive: -6.28%. Take `Cc1cc(SC(NC=O)C(Cl)(Cl)Cl)ncn1` (stereo not given): the inhibition was inactive: 5.33%. The same measure for `O=P(Nc1ccccn1)(c1cccc2ccccc12)c1cccc2ccccc12`: inactive: -5.01%; for `COc1ccccc1OP(C)(=O)Nc1ccccc1` (stereo not given): inactive: 0.83%. Consider `C[As](=O)(O)c1cccc(C(=O)O)c1`, for which the inhibition was inactive: -0.84%. Consider `O=[As](O)(c1ccc(O)cc1)c1ccccc1O`, for which the inhibition was inactive: 11.2%. The same measure for `O=[N+]([O-])c1ccc2c(c1)C=Nc1ccccc1O2`: inactive: 11.5%; for `Cc1ccc2nc3c(c(C)c2c1)CC(C(Cl)Cl)S3` (stereo not given): inactive: 5.68%; for `Cc1ccc(OP(=O)(Nc2ccc([N+](=O)[O-])cn2)Oc2ccc(C)cc2)cc1`: inactive: 90.7%.

Regarding `CC(C)(C)c1ccc(OP(C)(=O)Nc2ccc(SC(F)(F)F)cc2)cc1` (stereo not given), the inhibition is inactive: 1.31%. Turning to `Cc1cccc(C)c1OP(C)(N)=O` (stereo not given), the inhibition is inactive: 5.39%. Under `COc1ccccc1OP(C)(=O)Nc1ccc(C)cc1` (stereo not given) stands inactive: -1.07%; under `CCOC(=O)c1ccc(NP(C)(=O)Oc2ccccc2)cc1` (stereo not given), inactive: -9.55%; under `Cc1cc(C)cc(OP(C)(N)=O)c1` (stereo not given), inactive: -12.9%. `CC(C)NC(=O)NP(=O)(Oc1ccccc1)Oc1ccccc1`: the inhibition is inactive: 12.5%. As for `COc1ccccc1OP(C)(=O)Nc1cc(Cl)ccc1C` (stereo not given), the inhibition is inactive: -10.8%. On to `COc1ccc(OP(C)(=O)Nc2cccc(F)c2)cc1` (stereo not given), for which the inhibition was inactive: 17.4%.

Take `O=C(OC1CN2CCC1CC2)C12CC3CC(CC(C3)C1)C2` (stereo not given): the inhibition was inactive: 0.36%. For the compound `Cc1cc(=O)[nH]c(N[N+](=O)[O-])n1`, the inhibition was inactive: 32.1%. On to `CCN(CC)CCCOC(=O)C(O)(c1ccccc1)c1ccccc1`, for which the inhibition is inactive: -10.4%. Under `COc1ccc2nc(NP(=O)(c3ccccc3)c3ccccc3)sc2c1` stands inactive: 7.12%. Regarding `COc1cc(I)ccc1[As](=O)(O)O`, the inhibition was inactive: -9.27%. Take `COc1ccc(N/C(=N/P(=O)(N2CCOCC2)N2CCOCC2)N2CCOCC2)cc1`: the inhibition is inactive: -5.79%. As to `O=[As](O)(O)c1cccnc1`, the inhibition was inactive: 3.9%. The same measure for `COc1cc(C(=O)NCC2(N3CCOCC3)CCCCC2)cc(Cl)c1OC(C)C`: inactive: -11.2%; for `O=C(OC1CN2CCC1CC2)c1ccc(Cl)cc1` (stereo not given): inactive: 12.2%. As to `CCOC(=O)c1ccc(NP(C)(=O)Oc2cc(C)cc(C)c2)cc1` (stereo not given), the inhibition is inactive: -3.2%.

In the case of `Cc1cccc(OCC(=O)OC2CN3CCC2CC3)c1` (stereo not given), the inhibition is inactive: -5.93%. Take `O=[As](O)(c1cccc(O)c1)c1cccc(O)c1`: the inhibition is inactive: -11.5%. For `Cc1ccc(C)c(NP(C)(=O)Oc2ccccc2)c1` (stereo not given), the inhibition is inactive: 9.88%. In the case of `CCCOP(=S)(Nc1nc(N)cc(=O)[nH]1)OCCC`, the inhibition was inactive: 5.83%.

With `Cc1cc(C)cc(OP(C)(=O)Nc2ccccn2)c1` (stereo not given), the inhibition was inactive: 10.9%. Take `CP(=O)(Nc1cccc(Br)c1)Oc1ccccc1` (stereo not given): the inhibition is inactive: -11.5%.

Take `Nc1cccc2c([As](=O)(O)O)cccc12`: the inhibition was inactive: -6.37%. Under `CS(=O)(=O)c1cc([N+](=O)[O-])c2no[n+]([O-])c2c1` stands inactive: -10.9%; under `O=C(O)c1cccc(Nc2c([N+](=O)[O-])cc([N+](=O)[O-])cc2[N+](=O)[O-])c1`, inactive: -27.2%; under `CCOP1(=S)c2c(C)nn(CCC#N)c2N=C(c2ccccc2F)N1C` (stereo not given), inactive: 3.95%.

`O=P(Nc1nccs1)(Oc1ccccc1)Oc1ccccc1`: the inhibition was inactive: -5.05%.

`O=C(O)COc1ccc([As](=O)(O)O)cc1[N+](=O)[O-]`: the inhibition was inactive: 11%. Take `Nc1ccccc1[As](=O)(O)c1ccccc1`: the inhibition was inactive: 3.41%. With `NC(=O)Nc1ccc([As](=O)(O)O)cc1`, the inhibition is inactive: 2.24%.

Regarding `CC1=NCCc2c1[nH]c1ccccc21.O=[N+]([O-])c1cc([N+](=O)[O-])c(O)c([N+](=O)[O-])c1`, the inhibition is inactive: 4.33%. Turning to `COc1cc(C2NCCC3(OCCO3)C2(C)C)cc(OC)c1OC.O=[N+]([O-])c1cc([N+](=O)[O-])c(O)c([N+](=O)[O-])c1` (stereo not given), the inhibition was inactive: 14%. For the compound `CC1CCC(C(C)C)C(OP(=O)(Nc2ccccn2)c2ccccc2)C1` (stereo not given), the inhibition is inactive: -10.2%. Regarding `O=C(/C=C/c1ccccc1)OC1CN2CCC1CC2` (stereo not given), the inhibition is inactive: -0.96%. Consider `CCOC(=O)C(CC)C1=NC(C)(C)Cc2ccccc21.O=[N+]([O-])c1cc([N+](=O)[O-])c(O)c([N+](=O)[O-])c1` (stereo not given), for which the inhibition was inactive: -10.3%. Regarding `CN1CCCCC1COC(=O)C1(O)c2ccccc2CCc2ccccc21` (stereo not given), the inhibition is inactive: -1.12%. Regarding `COc1ccccc1OP(C)(=O)Nc1c(C)cccc1C` (stereo not given), the inhibition was inactive: 4.54%.

On to `O=P1(Nc2ncccn2)COc2ccccc2OC1`, for which the inhibition was inactive: -14.6%. `Cc1ccc(OCC(=O)OC2CN3CCC2CC3)cc1` (stereo not given): the inhibition was inactive: 60.1%. With `O=P1(Nc2ccc(Br)cn2)COc2ccccc2OC1`, the inhibition was inactive: 7.87%. `CCCOc1ccc(NP(C)(=O)Oc2ccc(Cl)cc2)cc1` (stereo not given): the inhibition is inactive: 8.51%.

With `CP(=O)(Nc1ccc(SC(F)(F)F)cc1)Oc1ccccc1` (stereo not given), the inhibition is inactive: -5.26%.

Take `Nc1cccc([As](=O)(O)c2ccccc2)c1`: the inhibition is inactive: 6.73%.

As to `CCOP(=O)(Nc1ccc(C)cn1)OCC`, the inhibition is inactive: 8.08%. On to `O=P1(Nc2ccccn2)COc2ccccc2OC1`, for which the inhibition was inactive: -8.38%. The same measure for `O=[N+]([O-])c1cc([N+](=O)[O-])c(-n2nnc3ccccc32)c([N+](=O)[O-])c1`: inactive: 16.8%. Under `Clc1n[nH]nc1-c1nn[nH][15n]1` stands inactive: -15%; under `CC(C)(C)C(=O)NC(Sc1ncccn1)C(Cl)(Cl)Cl` (stereo not given), inactive: -10%; under `O=[As](O)(c1ccccc1Br)c1ccccc1Br`, inactive: 21.4%. Regarding `Cc1nc2ccc3ccccc3c2s1.O=[N+]([O-])c1cc([N+](=O)[O-])c(O)c([N+](=O)[O-])c1`, the inhibition was inactive: 11.4%.

On to `CN(C(=O)Cc1ccc(Cl)c(Cl)c1)[C@@H]1CCCC[C@H]1N1CCCC1`, for which the inhibition is inactive: 3.14%. The same measure for `CP(=O)(Nc1ccc(SC(F)(F)F)cc1)Oc1ccc(F)cc1` (stereo not given): inactive: 3.33%; for `CC(C)C(=O)NC(Sc1ccccc1)C(Cl)(Cl)Cl` (stereo not given): inactive: 7.01%. Under `CCOP(C)(=S)SCC(=O)NC(C)(CC)C(=O)O` (stereo not given) stands inactive: 2.05%; under `Cc1ccccc1NP(C)(=O)Nc1ccccc1C`, inactive: -4.98%. Regarding `COc1ccc(OP(C)(=O)Nc2cccc(Br)c2)cc1` (stereo not given), the inhibition was inactive: 7.61%. The same measure for `O=P(Nc1ccccn1)(c1ccc(Br)cc1)c1ccc(Br)cc1`: inactive: -11.5%; for `O=P(Nc1nc2ccccc2s1)(c1ccccc1)c1ccccc1`: inactive: 1.85%; for `CN(C)CCOC(=O)C(O)(c1ccccc1)C1CCCCC1` (stereo not given): inactive: 36.8%. In the case of `COc1ccc(NP(C)(=O)Oc2ccccc2OC)cc1` (stereo not given), the inhibition is inactive: 2.95%. Take `CC(=O)NC(SC(=S)N(C)C)C(Cl)(Cl)Cl` (stereo not given): the inhibition is inactive: -3.1%. For the compound `O=[N+]([O-])c1ncn(CCn2cnc([N+](=O)[O-])n2)n1`, the inhibition was inactive: -16.7%. `O=[As](O)(c1ccccc1)c1ccc(O)cc1`: the inhibition is inactive: 2.85%.

Take `Cc1cc(-c2cccc3ccccc23)c(C)cn1.O=[N+]([O-])c1cc([N+](=O)[O-])c(O)c([N+](=O)[O-])c1`: the inhibition was inactive: -5.14%. For the compound `O=[N+]([O-])c1cc([N+](=O)[O-])c(NCC2CCS(=O)(=O)C2)c([N+](=O)[O-])c1` (stereo not given), the inhibition was inactive: 5.43%. Consider `C(Cc1nn[nH]n1)Cc1nn[nH]n1`, for which the inhibition is inactive: 3.98%. Regarding `Nc1ccc([As](=O)(O)c2ccc([N+](=O)[O-])cc2)cc1`, the inhibition is inactive: -1.48%. On to `O=C(OC1CN2CCC1CC2)c1cccc(Cl)c1` (stereo not given), for which the inhibition was inactive: -10.9%. Consider `O=C(NC1CCS(=O)(=O)C1)NP(=S)(Oc1ccccc1)Oc1ccccc1` (stereo not given), for which the inhibition is inactive: 7.83%. For `CCNC(=S)/N=C(\N)N[N+](=O)[O-]`, the inhibition was inactive: 3.08%. Consider `c1ccc(-c2nn[nH]n2)c(-c2nn[nH]n2)c1`, for which the inhibition was inactive: -1.64%. With `Cc1ccc(NP(=O)(Oc2cccc(C)c2)Oc2cccc(C)c2)nc1`, the inhibition was inactive: 10.7%. As for `COc1ccc(OP(C)(=O)Nc2ccc(SC(F)(F)F)cc2)cc1` (stereo not given), the inhibition is inactive: -7%.
